A mixed list of measured activities; the numbers were collected in NIAID ChemDB.

Common to all: toxicity to cultured cells; cells: MT-2; endpoint: CC50

Neighbouring rows are from separate reports. CCn is the concentration with n% toxicity to the cells. Blank or dashed fields: not listed here.

| structure | method | result |
|---|---|---|
| COc1cc(Cc2nn(C)c(=O)c3ccccc23)cc(OC)c1OC | propidium iodide | >147 µM |
| Fc1ccc(Nc2ncc(Cc3c(Cl)cccc3Cl)o2)cc1 | MTT | 12 µM |
| CC(=O)Oc1ccccc1C(=O)N1CCN(C(=O)C(=O)c2c[nH]c3ccccc23)CC1 | XTT | >10 µM |
| CNC(=O)NC[C@H]1O[C@@H](n2cnc3c(NC(=O)Nc4ccccc4)ncnc32)[C@H](O[Si](C)(C)C(C)(C)C)[C@@H]1CC(=O)N(C)OC | neutral red | 22.6 µM |
| Cc1[nH]nc(CC(=O)N[C@@H](Cc2ccccc2)C(=O)N(C)c2ccc3c(c2)OCO3)c1C | ATP | >20 µM |
| Cc1nc2ccccc2c(-c2ccc(Cl)cc2)c1[C@H](OC(C)(C)C)C(=O)O | - | 55.5 µM |
| [N-]=[N+]=NC[C@H]1O[C@@H](n2cnc3c(NC(=O)Nc4ccccc4)ncnc32)[C@@H]2OC(=O)C[C@@H]21 | neutral red | 21.9 µM |
| CCCOc1nc(N)nc2c1ncn2[C@@H]1C=C[C@H](CO)C1 | - | 97.6 µM |
| Cc1nn([C@H]2CO[C@H](CO)O2)c(=O)[nH]c1=O | - | >100 µM |
| COc1ccc(N(C)C(=O)[C@H](Cc2cc(F)cc(F)c2)NC(=O)c2ccc(F)c(C(=O)N[C@@H](Cc3cc(F)cc(F)c3)C(=O)N(C)c3ccc(OC)c(F)c3)c2)cc1F | XTT | 33.3 µM |
| Nc1nc(=O)n([C@@H]2C=C[C@H](CO)O2)cc1F | - | >100 µM |
| O=C(C(=O)N1CCN(C(=O)c2cccc(F)c2)CC1)c1c[nH]c2ccccc12 | XTT | >10 µM |
| Cc1ccc2c(=O)n(C)nc(Cc3ccccc3)c2c1 | propidium iodide | >198 µM |
| CC(C)Oc1nc(N)nc2c1ncn2[C@H]1C=C[C@@H](CO)C1 | - | >100 µM |
| CCN(C(=O)[C@H](Cc1cc(F)cc(F)c1)NC(=O)CN1c2ccccc2N(CC(=O)N[C@@H](Cc2cc(F)cc(F)c2)C(=O)N(CC)c2ccc(NC(=O)OC)cc2)S1(=O)=O)c1ccc(NC(=O)OC)cc1 | XTT | 100 µM |
| COc1cccc(OC)c1C1SCC(=O)N1c1ncccc1C | MTT | >25 µM |
| CCCOc1nc(N)nc2c1ncn2[C@H]1C=C[C@@H](CO)C1 | - | >100 µM |
| Cc1ccc2c(=O)n(C)nc(Cc3ccccc3Cl)c2c1 | propidium iodide | >167 µM |
| O=C(C(=O)N1CCN(C(=O)c2ccccc2)CC1)c1c[nH]c2cc(F)ccc12 | XTT | >10 µM |
| CCCCOc1nc(N)nc2c1ncn2[C@H]1C=C[C@@H](CO)C1 | - | >100 µM |
| Clc1cccc(Nc2nnc(Cc3c(Cl)cccc3Cl)o2)c1 | MTT | 71 µM |
| C=CCn1nc(Cc2ccc(Cl)cc2)c2ccccc2c1=O | propidium iodide | >161 µM |
| COc1ccc(OC)c(C2SCC(=O)N2CCc2ccccc2)c1 | MTT | >303 µM |
| CCc1c(CCO)c(C)nn1CC(=O)N[C@@H](Cc1ccccc1)C(=O)N(C)c1ccc2c(c1)OCO2 | ATP | >20 µM |
| CN(C(=O)[C@H](Cc1cc(F)cc(F)c1)NC(=O)c1cccc(C(=O)N[C@@H](Cc2cc(F)cc(F)c2)C(=O)N(C)c2ccc3scnc3c2)c1Cl)c1ccc2scnc2c1 | XTT | 100 µM |
| NS(=O)(=O)c1ccc(N2C(=O)CSC2c2ccccc2Cl)cc1 | MTT | 21 µM |
| CCOC(=O)C[C@H]1[C@@H](O[Si](C)(C)C(C)(C)C)[C@H](n2cnc3c(NC(=O)Nc4ccccc4)ncnc32)O[C@@H]1CNC(=O)NC | neutral red | 37.8 µM |
| Cc1ccc2c(c1)/C(=C/c1ccc(Cl)cc1Cl)OC2=O | propidium iodide | >164 µM |
| CC(c1nnc(Nc2ccc(C#N)cc2)o1)c1c(F)cccc1F | MTT | 8.5 µM |
| Cc1cn([C@H]2C=C[C@@H](CO)O2)c(=O)[nH]c1=O | - | >100 µM |
| CN(C(=O)[C@H](Cc1ccccc1)NC(=O)NS(=O)(=O)N[C@@H](Cc1ccccc1)C(=O)N(C)c1ccc2scnc2c1)c1ccc2scnc2c1 | XTT | 100 µM |
| O=C(C(=O)N1CCN(C(=O)c2cccc(Br)c2)CC1)c1c[nH]c2ccccc12 | XTT | >10 µM |
| CCCNc1nc(N)nc2c1ncn2[C@H]1C=C[C@@H](CO)C1 | - | >100 µM |
| Cc1nn(CC(=O)N[C@@H](Cc2ccccc2)C(=O)N(C)c2ccc3c(c2)OCO3)c(C(C)C)c1CCO | ATP | >20 µM |
| CCOc1ccc(N(CC)C(=O)[C@H](Cc2ccccc2)NC(=O)NS(=O)(=O)N[C@@H](Cc2ccccc2)C(=O)N(CC)c2ccc(OCC)cc2)cc1 | XTT | 33.3 µM |
| COc1ccc(/C=C/C2NCCc3cc(OCc4ccccc4)c(OC)cc32)c(C)c1 | fluorescence | 9.7 µM |
| Cc1ccc2[nH]cc(C(=O)C(=O)N3CCN(C(=O)c4ccccc4)CC3)c2c1 | XTT | >10 µM |
| CCN(C(=O)[C@H](Cc1cc(F)cc(F)c1)NC(=O)NS(=O)(=O)N[C@@H](Cc1cc(F)cc(F)c1)C(=O)N(CC)c1ccc2oc(=O)n(CC)c2c1)c1ccc2oc(=O)n(CC)c2c1 | XTT | 50 µM |
| Cc1c(CCO)c(C2CC2)nn1CC(=O)N[C@@H](Cc1ccccc1)C(=O)N(C)c1cccc2ncccc12 | ATP | >20 µM |
| CCCCn1nc(Cc2ccc(SC)cc2)c2ccccc2c1=O | propidium iodide | 71.1 µM |
| Clc1ccc(Nc2nnc(Cc3c(Cl)cccc3Cl)s2)cc1 | MTT | >100 µM |
| C=C1CN(S(=O)(=O)c2ccc(C)cc2)CCCN(Cc2ccccc2)CCCN(S(=O)(=O)c2ccc(C)cc2)C1 | - | >30 µM |
| Nc1ncn([C@@H]2CO[C@@H](CO)O2)c(=O)n1 | - | 27 µM |
| COc1ccc(OC)c(C2SCC(=O)N2c2ccccn2)c1 | MTT | >3 µM |
| CCCOc1nc(N)nc2c1ncn2[C@@H]1C=C[C@H](CO)C1 | - | 98 µM |
| C=CCN(C(=O)[C@H](Cc1cc(F)cc(F)c1)NC(=O)c1cccc(S(=O)(=O)N[C@@H](Cc2cc(F)cc(F)c2)C(=O)N(CC=C)c2ccc(OC)cc2)c1)c1ccc(OC)cc1 | XTT | 1.6 µM |
| Cc1cc(Nc2nnc(Cc3c(Cl)cccc3Cl)o2)ccc1Cl | MTT | >100 µM |
| Nc1ncn([C@H]2CO[C@@H](CO)O2)c(=O)n1 | - | 32 µM |
| COc1ccc(N(C)C(=O)[C@H](Cc2ccccc2)NC(=O)c2cc(Br)cc(C(=O)N[C@@H](Cc3ccccc3)C(=O)N(C)c3ccc(OC)cc3)c2)cc1 | XTT | 100 µM |
| N#Cc1cccc(Nc2nnc(Cc3c(Cl)cccc3Cl)o2)c1 | MTT | 46 µM |

For reference, 4 entries again:

{"structure": "Clc1ccc(Nc2nnc(Cc3c(Cl)cccc3Cl)s2)cc1", "method": "MTT", "result": ">100 µM"}
{"structure": "CCCNc1nc(N)nc2c1ncn2[C@H]1C=C[C@@H](CO)C1", "result": ">100 µM"}
{"structure": "Cc1nc2ccccc2c(-c2ccc(Cl)cc2)c1[C@H](OC(C)(C)C)C(=O)O", "result": "55.5 µM"}
{"structure": "CN(C(=O)[C@H](Cc1ccccc1)NC(=O)NS(=O)(=O)N[C@@H](Cc1ccccc1)C(=O)N(C)c1ccc2scnc2c1)c1ccc2scnc2c1", "method": "XTT", "result": "100 µM"}